Construct, isoform or probe ends are uncertain for at least one entry. A weaker result is weaker than the reference pair of the same experiment.
Tested on: Neisseria HU
Assay: EMSA
Settings: EMSA: 20 mM Tris pH 7.4, 100 mM NaCl, 25 C, 15 min (30 min HU/competitor pre-incubation), 4% agarose gel, recombinant protein, protein details: C-terminal His6, label: none (SYBR Green I stain)

Q: What does the source list for “CTCGCGAGCTCGCGAGCTCGCGAGCTCGCGAGCTCGCGAGCTCGTCGCGAG (double strand) [HU EMSA DNA substrate (stated 48 bp)]”?
A: binding result (8 uM HU dimer, 0.5 uM DNA, no competitor, SYBR Green …): binds; binding result (HU pre-incubated with DMP19 (8 or 16 uM), shift reduced at 1:1 DMP19 monomer:HU dimer, SYBR Green I): binds more weakly; binding result (with BSA as control competitor protein, no change in HU-bound band, SYBR Green I): binds; binding result (with ICP11 (DNA mimic) as control competitor protein, no change in HU-bound band, SYBR Green I): binds

Reference: article PMC5722371
